B1: MPV.10.34.d capsid backbone (protein)
chain: MLYLPPTTPVAKVQSTDEYVYPTSLFCHAHTDRLLTVGHPFFSVIDNDKVTVPKVSGNQYRVFRLKFPDPNKFALPQKDFYDPEKERLVWRLRGLEIGRGGPLGIGTTGHPLFNKLGDTENPNKYQQGSKDNRQNTSMDPKQTQLFIVGCEPPTGEHWDVAKPCGALEKGDCPPIQLVNSVIEDGDMCDIGFGNMNFKELQQDRSGVPLDIVSTRCKWPDFLKMTNEAYGDKMFFFGRREQVYARHFFTRNGSVGEPIPNSVSPSDFYYAPDSTQDQKTLAPSVYFGTPSGSLVSSDGQLFNRPFWLQRAQGNNNGVCWHNELFVTVVDNTRNTNFTISQQTNTPNPDTYDSTNFKNYLRHVEQFELSLIAQLCKVPLDPGVLAHINTMNPTILENWNLGFVPPKEREDPYKGLIFWEVDLTERFSQDLDQFALGRKFLYQ

Assay: Percent peptide conjugation by SDS-PAGE densitometry
Conditions: 10:1 TCEP:L1, 10:1 peptide:L1

Molecule | percent conjugation (densitometry) | percent conjugation (densitometry) (listed as WT HPV16 T=7 capsid backbone) | percent conjugation (densitometry) (listed as MPV.10.34.d) | percent conjugation (densitometry) (listed as MPV.10.34.d capsid backbones) [%]
HPV16: wild type HPV16 L1 T=7 capsid backbone [reference compound] | approximately 20% | at least 20% | – | –
B1 | at least 50% | – | about 50% | 50
